Laboratory results taken from US7902182B2, “HIV integrase inhibitors” (priority 2005, dated 2011).

Tests used:
HIV-integrase = HIV-integrase (Human immunodeficiency virus type 1 group M subtype B, UniProt P12497); assay: HIV-Integrase Inhibition Activity (SPA bead strand transfer assay); conditions: read-out: Activity (IC50 against HIV-integrase); recombinant integrase, biotin labeled substrate DNA on SPA beads, P33 labeled target DNA
Experimental: HIV-Integrase InhibitionActivity. To evaluate in-vitro activity against HIV-integrase, 5 pmole of biotin labeled substrate DNA was bound to 100 μg of Streptavidin coated PVT SPA beads (Amersham Pharmacia Biotech). Recombinant integrase (0.26 ng) was incubated with the beads for 90 min at 37° C. Unbound enzyme was removed by washing the complex followed by addition of inhibitors and 0.1 fmol of P33 labeled target DNA. The reaction was stopped by adding EDTA to a final concentration of 10 mM. Samples were counted in TopCountNXT (Packard) and the CPM was used as a measure of integration. The reaction condition was as described in A. Engelman and R. Craigie, J. Virol. 69, 5908-5911 (1995). The sequences of substrate and target DNA were described in Nucleic Acid Research 22, 1121-1122 (1994).
Activity equal to A refers to a compound having IC50=0.002 to 0.10 μM while B and C denote compounds having IC50=0.1 to 1.0 μM and IC50≧1.0 μM respectively.

[1] = system: recombinant NL-Rluc virus; assay: Inhibition of HIV replication (NL-Rluc luciferase reporter virus); conditions: read-out: Activity (EC50, inhibition of HIV replication); NL-RLuc pseudotype virus; serum condition of the tabulated values not stated (10% FBS, 15 mg/ml human serum albumin/10% FBS or 40% human serum/5% FBS); at least 2 experiments
Experimental: Inhibition of HIV replication. A recombinant NL-Rluc virus was constructed in which a section of the nef gene from NL4-3 was replaced with the Renilla Luciferase gene. The NL-RLuc virus was prepared by co-transfection of two plasmids, pNLRLuc and pVSVenv. The pNLRLuc contains the NL-Rluc DNA cloned into pUC18 at the pvuII site, while the pVSVenv contains the gene for VSV G protein linked to an LTR promoter. Transfections were performed at a 1:3 ratio of pNLRLuc to pVSVenv on 293T cells using the LipofectAMINE PLUS kit from Invitrogen (Carlsbad, Calif.) according to manufactures instruction, and the pseudotype virus generated was titered in MT-2 cells.
Susceptibility of viruses to compounds was determined by incubation in the presence of serial dilutions of the compound. The 50% effective concentration (EC50) was calculated by using the exponential form of the median effect equation where (Fa)=1/[1+(ED50/drug conc.)^m] (Johnson V A, Byington R T. Infectivity Assy. In Techniques in HIV Research. ed. Aldovini A, Walker B D. 71-76. New York: Stockton Press. 1990). The anti-viral activity of compounds was evaluated under three serum conditions, 10% FBS, 15 mg/ml human serum albumin/10% FBS or 40% human serum/5% FBS, and the results from at least 2 experiments were used to calculate the EC50 values. […]

| SMILES | IC50 (HIV-integrase) | EC50 [1] |
| --- | --- | --- |
| O=C(NCc1ccc(F)cc1S(=O)(=O)N1CCN(CC2CC2)CC1)c1nc2n(c(=O)c1O)CCOC21CCOCC1 | 2 to 100 nM | 3 to 100 nM |
| CC(C)N1CCN(S(=O)(=O)c2cc(F)ccc2CNC(=O)c2nc3n(c(=O)c2O)CCOC32CCOCC2)CC1 | 2 to 100 nM | 3 to 100 nM |
